{"source": "the supplement of paper PMC9931576", "binders": {"B1": {"name": "BD55-5969 (protein)", "chain 1": "QVTLKESGPVLVKPTETLTLTCTVSGFSLSNAKMGVSWIRQPPGKALEWLAHIFSNDEKSYSTSLRSRLTISKDTSKSQVILTMTNMDPVDTATYYCARILPLGYYYYAMDVWGQGTTVTVSS", "chain 2": "DIQMTQSPSSLSASVGDRVTITCRASQRIGSYLNWYQQRPGKAPKLLIYEASSLQSGVPSRFSGSGSGTYFTLTISSLEPEDFATYYCQQSYSTPGYTFGQGTKLDIK"}, "B2": {"name": "BD55-6012 (protein)", "chain 1": "EVQLVESGGGLVQPGRSLRLSCAASGFTFNDYAMHWLRQPPGKGLEWVSSITWSGGLTWKSGGIVYADSVKGRFTISRDSAKNSLYLQMNSLRTEDTALYYCAKDSLMFGDRSSWHNHWFDSWGQGTLVIVSS", "chain 2": "QSVLTQAPSASGTPGQRVTISCSGSNSNIGSNPVNWYQQLPGTAPKLLMYRNNQRPSGVPDRFSGSKSGTSASLVISGLQSEDEADYYCAAWDDSLNGWVFGGGTKLAVL"}, "B3": {"name": "BD55-5992 (protein)", "chain 1": "QVQLQESGPGLVTPSQTLSLTCAVSGGSIGSGGYYWTWIRQYPGKGLEWIGKIHYSGSTHYNPSLKSRATMSVDPSKNQFALNLRSVTAADTAVYYCARDSAHGNYLYFGMDVWGQGTTVSVFS", "chain 2": "DIQMTQSPSSVSASVGDRVTITCRASQGVSTWVAWYQQKPAQAPRLLIYAASTLQTGVPSRFRGSGSGTDFTLTISSLQPDDFATYYCQQANSFPYTFGQGTKLEIR"}, "B4": {"name": "BD55-5983 (protein)", "chain 1": "QVQLQQSGPGLVKPSQTLSLTCTVSGGSIGSGGYYWSWIRQHPGKGLEWIGNIHYSGTTHYNPSLKSRLTISVDTSKNQFSLKLSSVNAADTAVYYCARDSAEGNYLYFGMDVWGQGTTVTVSS", "chain 2": "DIQMTQSPSSVSASVGDRVTITCRASQGISNWLAWYQQKPGKAPNLLIYAASTLQSGVPSRFSASGSGTDFTLTISSLQPEDFATYYCQQANSFPFTFGPGTKVDI"}, "B5": {"name": "BD55-5989 (protein)", "chain 1": "QVQLVQSGAEVKKPGSSVKVSCKASGGTFSSYGINWARQAPGQGLEWMGGIIPIFGTTNYAQKFQGRVTIVADESTDTAYMELSGLRSEDTAVYYCARQIGNSRLDLRGEWGQGTRVTVSS", "chain 2": "DIQMTQSPSSLSASVGDRVTITCQASQDIGYSLNWFQQRPGKAPQLLIYDASNLEIGVPSRFSGSGSGTDFTFTISSLQPEDIATYYCQQYDDLPLTFGGGTQVE"}, "B6": {"name": "BD55-1140 (protein)", "chain 1": "QVQLVQSGAEVKKPGASLKVSCKASGYTFSSHYMHWVRQAPGQGLQWMGIINPSAGSTTYAQKFQGRITMTSDTSTTTVYMELSGLRYDDTAVYYCARDYGFLPHRAYFEYWGQGTLVSVSS", "chain 2": "EIVLTQSPATLSLSPGERATLSCRASQSISKYLAWYQQKPGQAPRLLIFDASNRATGIPARFSGSGSGTDFTLTISSVEPDDFAVYYCLQRSDWFTFGPGTKVDIK"}}, "note": "Human monoclonal antibodies against the spike receptor-binding domain (heavy:light variable regions). IC50 against pseudoviruses bearing the spike of naturally observed variants; lower = stronger; >10 µg/ml means not reached at the top dose. No active / inactive call. The stated detection limit is 0.0005 µg/ml; values near or below 0.001 µg/ml lie at the floor of the assay.", "data": [{"molecular_target": "SARS-CoV-2 Omicron BA.1 spike pseudovirus", "assay": "pseudovirus neutralization IC50; higher = weaker neutralization", "procedure": "(§1)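 Single-round VSV luciferase pseudovirus mixed with antibody dilutions for 1 h and put on Huh-7 cells for about a day; IC50 from the dose curve.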", "units": {"pseudovirus neutralization IC50": "µg/mL"}, "values": [{"binder": "B1", "pseudovirus neutralization IC50": "> 10"}, {"binder": "B2", "pseudovirus neutralization IC50": "> 10"}, {"binder": "B3", "pseudovirus neutralization IC50": "> 10"}, {"binder": "B4", "pseudovirus neutralization IC50": "> 10"}, {"binder": "B5", "pseudovirus neutralization IC50": "> 10"}, {"binder": "B6", "pseudovirus neutralization IC50": "> 10"}]}, {"molecular_target": "SARS-CoV-2 Omicron BA.2 spike pseudovirus", "assay": "pseudovirus neutralization IC50; higher = weaker neutralization", "procedure": "as §1", "units": {"pseudovirus neutralization IC50": "µg/mL"}, "values": [{"binder": "B1", "pseudovirus neutralization IC50": "> 10"}, {"binder": "B2", "pseudovirus neutralization IC50": "> 10"}, {"binder": "B3", "pseudovirus neutralization IC50": "> 10"}, {"binder": "B4", "pseudovirus neutralization IC50": "> 10"}, {"binder": "B5", "pseudovirus neutralization IC50": "> 10"}, {"binder": "B6", "pseudovirus neutralization IC50": "> 10"}]}, {"molecular_target": "SARS-CoV-2 Omicron BA.2.75 spike pseudovirus", "assay": "pseudovirus neutralization IC50; higher = weaker neutralization", "procedure": "as §1", "units": {"pseudovirus neutralization IC50": "µg/mL"}, "values": [{"binder": "B1", "pseudovirus neutralization IC50": "> 10"}, {"binder": "B2", "pseudovirus neutralization IC50": "> 10"}, {"binder": "B3", "pseudovirus neutralization IC50": "> 10"}, {"binder": "B4", "pseudovirus neutralization IC50": "> 10"}, {"binder": "B5", "pseudovirus neutralization IC50": "> 10"}, {"binder": "B6", "pseudovirus neutralization IC50": "> 10"}]}, {"molecular_target": "SARS-CoV-2 Omicron BA.5 spike pseudovirus", "assay": "pseudovirus neutralization IC50; higher = weaker neutralization", "procedure": "as §1", "units": {"pseudovirus neutralization IC50": "µg/mL"}, "values": [{"binder": "B1", "pseudovirus neutralization IC50": "> 10"}, {"binder": "B2", "pseudovirus neutralization IC50": "> 10"}, {"binder": "B3", "pseudovirus neutralization IC50": "> 10"}, {"binder": "B4", "pseudovirus neutralization IC50": "> 10"}, {"binder": "B5", "pseudovirus neutralization IC50": "> 10"}, {"binder": "B6", "pseudovirus neutralization IC50": "> 10"}]}, {"molecular_target": "SARS-CoV-2 Omicron BQ.1.1 spike pseudovirus", "assay": "pseudovirus neutralization IC50; higher = weaker neutralization", "procedure": "as §1", "units": {"pseudovirus neutralization IC50": "µg/mL"}, "values": [{"binder": "B1", "pseudovirus neutralization IC50": "> 10"}, {"binder": "B2", "pseudovirus neutralization IC50": "> 10"}, {"binder": "B3", "pseudovirus neutralization IC50": "> 10"}, {"binder": "B4", "pseudovirus neutralization IC50": "> 10"}, {"binder": "B5", "pseudovirus neutralization IC50": "> 10"}, {"binder": "B6", "pseudovirus neutralization IC50": "> 10"}]}, {"molecular_target": "SARS-CoV-2 Omicron XBB spike pseudovirus", "assay": "pseudovirus neutralization IC50; higher = weaker neutralization", "procedure": "as §1", "units": {"pseudovirus neutralization IC50": "µg/mL"}, "values": [{"binder": "B1", "pseudovirus neutralization IC50": "> 10"}, {"binder": "B2", "pseudovirus neutralization IC50": "> 10"}, {"binder": "B3", "pseudovirus neutralization IC50": "> 10"}, {"binder": "B4", "pseudovirus neutralization IC50": "> 10"}, {"binder": "B5", "pseudovirus neutralization IC50": "> 10"}, {"binder": "B6", "pseudovirus neutralization IC50": "> 10"}]}, {"molecular_target": "SARS-CoV-2 early D614G spike pseudovirus", "assay": "pseudovirus neutralization IC50; higher = weaker neutralization", "procedure": "as §1", "units": {"pseudovirus neutralization IC50": "µg/mL"}, "values": [{"binder": "B1", "pseudovirus neutralization IC50": "> 10"}, {"binder": "B2", "pseudovirus neutralization IC50": "> 10"}, {"binder": "B3", "pseudovirus neutralization IC50": 0.486}, {"binder": "B4", "pseudovirus neutralization IC50": "> 10"}, {"binder": "B5", "pseudovirus neutralization IC50": "> 10"}, {"binder": "B6", "pseudovirus neutralization IC50": "> 10"}]}]}
